Compound potency records, mixed from different reports. Data source: NIAID ChemDB in PubChem.

Shared fields: tests in culture; species: Aspergillus flavus; endpoint: zone

Lines come from different laboratories, so protocols vary. Blank or dashed fields: not listed here. Zones are inhibition diameters on agar.

SMILES | strain | dose | value
COc1ccc(C2SCC(=O)N2NC(=O)Cn2c(=O)c(C)nc3ccccc32)cc1 |  | 100 µg/mL | 15 mm
Brc1ccc(-c2nn(-c3ccccc3)cc2C2CC(c3ccc(-c4ccccc4)cc3)=NN2c2ccccc2)cc1 |  | 500 µg/mL | 5 mm
COc1ccc(C2SCC(=O)N2NC(=O)Cn2c(=O)c(C)nc3ccccc32)cc1O |  | 50 µg/mL | 10 mm
Clc1ccc(-c2nn(-c3ccccc3)cc2C2CC(c3ccc(-c4ccccc4)cc3)=NN2c2ccccc2)cc1 |  | 500 µg/mL | 3 mm
Cc1cc(=O)oc2c(C=Nc3cccc4cccc(N=Cc5c(O)ccc6c(C)cc(=O)oc56)c34)c(O)ccc12 | MTCC 1883 | 100 µg/mL | 9 mm
CC(=O)Nc1ccccc1Sc1ncccc1[N+](=O)[O-] | MTCC 277 | 100 µg/mL | 12 mm
OC(Cn1cncn1)(Cn1cncn1)c1ccc(F)cc1F |  | 100 µg/mL | 98 mm
COc1ccc(-c2nn(-c3ccccc3)cc2C2CC(c3ccc(Cl)cc3Cl)=NN2c2ccccc2)cc1 |  | 1000 µg/mL | 0 mm
Brc1ccc2c(c1)Sc1cccnc1N2CCCCN1c2ccc(Br)cc2Sc2cccnc21 | MTCC 277 | 100 µg/mL | 10 mm
Cc1nc2ccccc2n(CC(=O)NN2C(=O)CSC2c2ccccc2O)c1=O |  | 50 µg/mL | 8 mm
CC(=O)Nc1ccc(Cl)cc1Sc1ncccc1[N+](=O)[O-] | MTCC 277 | 100 µg/mL | 12 mm
Clc1ccc(-c2nn(-c3ccccc3)cc2C2CC(c3ccc(Cl)cc3Cl)=NN2c2ccccc2)cc1 |  | 1000 µg/mL | 4 mm
Cc1nc2ccccc2n(CC(=O)NN2C(=O)CSC2c2ccc(C(F)(F)F)cc2)c1=O |  | 50 µg/mL | 14 mm
Brc1ccc2c(c1)Sc1cccnc1N2CCCCCCN1c2ccc(Br)cc2Sc2cccnc21 | MTCC 277 | 100 µg/mL | 12 mm
Cc1nc2ccccc2n(CC(=O)NN2C(=O)CSC2c2ccccc2F)c1=O |  | 100 µg/mL | 14 mm
CC(=O)Nc1ccc(F)cc1Sc1ncccc1[N+](=O)[O-] | MTCC 277 | 100 µg/mL | 10 mm